Test results from ChEMBL document CHEMBL1139704, “Discovery of potent inhibitors of pseudomonal quorum sensing via pharmacophore modeling and in silico screening” (Bioorg Med Chem Lett, 2006).
Calls of active or inactive are those of the source. No cut-off for these calls is given here.

What was measured:
Pseudomonas aeruginosa [1] = experiment: Inhibition of pyoverdin production in Pseudomonas aeruginosa; assay type: functional, organism-based
Procedure, shortened: (§1)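 Overnight nutrient broth cultures were pelleted, resuspended, grown to mid-log phase (OD600 0.3–0.5), and diluted to OD600 0.05. Cultures were exposed to compound in water at 50.00, 25.00, 10.00, 5.00, 2.50, 1.00, 0.10, 0.001 or zero final concentration, shaken 18 h at 37 C. Viable cells were counted, and the pellet OD600 was used to normalise pigment per bacterial OD unit.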

Pseudomonas aeruginosa [2] = experiment: Inhibition of pyocyanin production in Pseudomonas aeruginosa; assay type: functional, organism-based; procedure, shortened: as §1

CCOP(=O)(Nc1ccccc1Cl)OCC
Activity (Pseudomonas aeruginosa [1]): inactive
Activity (Pseudomonas aeruginosa [2]): inactive
